Pooled drug test results. Numbers come from NIAID ChemDB, via PubChem.

All rows: whole-cell or culture tests; agent: Hepatitis B virus; cell line: 2.2.15; measure: EC50

Lines come from different laboratories, so protocols vary. ECn: concentration that inhibits the pathogen or its effect by n%. An empty or dashed field is not shown.

compound	read by	value
Nc1nc(F)c2ncn(/C=C3\CC3(CO)CO)c2n1	hybridisation	>20 µM
Cc1ccc([C@@H](C)CCCC(C)CO)c(O)c1	-	>61 µg/mL
Nc1nc2c(ncn2C=C2CC2CO)c(=O)[nH]1	-	10 µM
Cc1ccc([C@@H](C)CCCC(C)(C)O)c(O)c1	-	>61 µg/mL
Nc1nc2c(ncn2CCC(CO)COP(=O)(O)OP(=O)(O)OP(=O)(O)O)c(=O)[nH]1	-	0.6 µM
CC(C)=CCC[C@H](C)c1ccc(C)c([N+](=O)[O-])c1O	-	>61 µg/mL
COC(=O)[C@H](C)NP(=O)(OCC1C/C1=C/n1cnc2c(=O)[nH]c(N)nc21)Oc1ccccc1	-	2 µM
COC(=O)[C@H](C)NP(=O)(OCC1C/C1=C/n1cnc2c(N)ncnc21)Oc1ccccc1	-	0.01 µM
CC(C)=CCC[C@H](C)c1ccc(C)cc1OC(=O)c1ccncc1	-	>61 µg/mL
Nc1nc2c(ncn2/C=C2/CC2(CO)CO)c(=O)[nH]1	hybridisation	>10 µM
Cc1ccc([C@@H](C)CCC(=O)C(C)(C)O)c(O)c1	-	>61 µg/mL
O=c1ccn(C[C@H]2C[C@H]2CO)c(=O)[nH]1	-	>10 µM
Cc1ccc([C@@H](C)CCCC(C)(C)O)c(OC(=O)c2ccncc2)c1	-	>61 µg/mL
COC(=O)[C@H](C)NP(=O)(OC[C@@H]1C[C@]12C[C@@H]2n1cnc2c(N)ncnc21)Oc1ccccc1	-	3.1 µM
CC(C)=CCC[C@H](C)c1ccc(C)cc1O	-	>61 µg/mL
Nc1ncnc2c1ncn2C[C@H]1C[C@H]1CO	-	>10 µM
Cc1ccc([C@@H](C)CCCC(C)C(=O)O)c(O)c1	-	>61 µg/mL
Nc1ncnc2c1ncn2C[C@H]1C[C@H]1[C@H](O)CO	-	>10 µM
CCOC(=O)c1c(CS(=O)c2ccccc2)n(C)c2cc(Br)c(O)c(Cn3ccnc3C)c12	-	22.49 µg/mL
Nc1nc(Cl)c2ncn(C=C3C[C@H]3CO)c2n1	-	>10 µM
COC(=O)[C@H](C)NP(=O)(OCC1C/C1=C/n1cnc2c(N)ncnc21)Oc1ccccc1	-	0.01 µM
O=c1[nH]cnc2c1ncn2C[C@H]1C[C@H]1CO	-	>10 µM
Nc1nc(N)c2ncn(C=C3CC3CO)c2n1	-	10 µM
O=C1NNC(=O)c2c(ncn2[C@@H]2O[C@H](CO)[C@@H](O)[C@H]2O)N1	antigen	<30 µM
Nc1ccn([C@@H]2CS[C@H](CO)O2)c(=O)n1	-	0.1 µM